# Laboratory results from the supplement of paper PMC12637763.
# Residue numbers refer to the chain shown, from its start. The list shows a part of the results. Env chains of viruses from a treatment-interruption trial, translated from the printed DNA. IC50 / IC80 of two broadly neutralizing antibodies; lower = more sensitive virus; >50 µg/ml means not reached and <0.001 µg/ml is below the lowest dose. No active / inactive call.
# B1: HIV-1 Env, rebound clone, antibody arm (protein)
# chain: MRVREIRRNYLWRWGTLLLGILMMICSADNWWVTVYYGVPVWKEATTTLFCASDAKAYETEVHNVWATHACVPTDPNPQEVALENVTENFNMWKNNMVEQMQEDIISLWDQSLKPCVELTPLCVTLNCTNVNNTRTNSTISGPTAKPGEEEMKNCSFNITTGIRDKIKKEYALFYKLDVVPIDDSNTSYRLISCNTSVIKQACPKVSFEPIPIHYCAPAGFAILKCRDKQFNGTGPCRNVSTVQCTHGIKPVVTTQLLLNGSLAEEEVVIRSANFSDNAKIIIVQLNESVQINCTRPNNNTRKSIPIGPGRAFYATGDIIGDIRQAHCSISKTRWNNTLKLIREKLKTQFGDKTIVFNQSSGGDPEIVTHSFNCGGEFFYCNTTPLFNSTEGSNTTAENNTTDIITLQCRIKQIINMWQKVGKAMYAPPIRGNISCSSNITGLLLTRDGGNTTDNGSEIFRPGGGDMRDNWRSELYKYKVVKIEPIGLAPTKAKRRVVQREKRALGMGALFLGFLGAAGSTMGAASVTLTVQARQLLSGIVQQQNNLLRAIEAQQHLLQLTVWGIKQLQARVLAVESYLRDQQLLGIWGCSGKLICTTAVPWNISWSKSKSWNKTNLADIWENMTWMQWESEIDNYTNIIYQLIEESQNQQEKNEKDLLELDKWASLWNWFSISNWLWYIKLFIMIVGGLIGLRIIFSVLSIVNRVRQGYSPLSFQTRPPAARGHDRPEGIEEGGGDRDRDRSNQLVDGFLALIWVDLRSLCLFSYHRLRDFLLVVTRIVELLGRRGWEILKYWWNLLQYWSQELKNSAVSLLNATAIAVAEGTDRVIEIVQRAFRAIIHIPTRIRQGFERALL
# B2: HIV-1 Env, rebound clone, antibody arm (protein)
# chain: B1 chain with G248E
# B3: HIV-1 Env, rebound clone, antibody arm (protein)
# chain: B1 chain with V368A
# B4: HIV-1 Env, rebound clone, antibody arm (protein)
# chain: MRVKGIRRNYQHWWRGDIWRWGMMLLGMLMICSATGSLWVTVYYGVPVWKEATTTLFCASDAKAYDTEAHNVWATHACVPTDPNPQEVPLVNVTENFNMWKNNMVEQMHEDIISLWDQSLKPCVKLTPLCVTLHCTEIGTNATNNSSHNPNPTTNSSTSPTPMGEIKNCSFNVTTNRRDKVQKTYAFFYNMDIKQIAEEDNTSYILTSCNTSVITQACPKVSFEPIPIHYCAPAGFAILKCNDTNFNGTGPCKNVTTVQCTHGIKPVVSTQLLLNGSLARGEVMIRSENISNNAKIIIVQLKEPVEINCTRPNNNTRKSITIGPGRAFFGTDIIGGIRQAHCNISREKWNYTLYQISEKLRSHFVNKTIVFNQSSGGDPEIVMHSFNCGGEFFYCDTSKLFNSTWHTNSTANNTGDNSTVTLPCRIKQIVNMWQEVGKAMYAPPIKGPIRCSSKITGVLLTRDGGTNNTNTTETFRPAGGDMRDNWRSELYKYKVVQIEPLGIAPTQAKRRVVQRDKRAVGIGALFLGFLGTAGSTMGAASITLTVQARNLLSGIVQQQNNLLRAIEAQQHLLQLTVWGIKQLQARVLAVESYLKDQQLLGIWGCSGKLICTTAVPWNNSWSNKSLDYIWNNMTWMEWEREIDNYTEYIYDLLEASQNQQEKNEQELLALDKWASLWSWFSITQWLWYIKLFLIIVGGLIGLRIVFAVFSIVNRVRQGYSPLSLQTLLPAQRGPDRPEGIEEEGGEQDRGRSIRLVDGFLALFWDDLRSLCLFSYHRLRDLLLIVTRIVELLGRRGWETLKYCWNLLQYWGQELKKSAVSLFNFSAIAVAEGTDRVIEVVQRIWRAIIHIPRRIRQGLEGALL
# B5: HIV-1 Env, rebound clone, antibody arm (protein)
# chain: MKVKGIRKNWPHLWWTWGTMLLGMLMICSAVDQSWVTVYYGVPVWKEANTTLFCASDAKAYHTEAHNVWATHACVPTDPDPQEVVLENVTENFNMWKNNMVEQMHEDIISLWDQSLKPCVKLTPLCVTLNCTDFCRNDSCRNDSYGNNSYSMGNIEKGEIKNCSFNITTDIGEKKNNIYALFYKLDITPINNTTYRMISCNTSVITQACPKISFEPIPIHYCTPAGFALLKCNDKKFNGTGLCKNVSTVQCTHGIKPVVSTQLLLNGSLAEEEVVVRSENLTDNSKTIIVQLNETVKINCIRPNNNTRTGINIGPGRAWYATTDIIGDIRQAHCNIRKDQWNKTLQQVAIKLREQFGNNKTIIFKQSSGGDPEIVMHSVNCGGEFLYCNTTQLFNSTWDNDALNSTWNNTSASNEGNISLPCRIKQIINRWQGVGKAMYAPPIQGIIKCSSNITGLLLTRDGGNTGNQSNSNETFRPGGGNMRDNWRSELYKYKVVKIEPLGVAPTRARRRVVQREKRAVGTIGAMFLGFLGAAGSTMGAASMTLTVQARQLLSGIVRQQNNLLKAIEAQQHLLQLTVWGIKQLQARVLAVERYLKDQQLLGIWGCSGKLICTTSVPWNASWSNKSLDQIWNNMTWMEWEREVGNYTQLIYTLIEESQNQQEKNEQELLELDKWDSLWNWFTITKWLWYIKIFIMIVGGLIGLRIVFAVLSIVKKVRQGYSPLSLQTLLPAQRGPDRPEGTDEEGGERGSDTSVRLVTGFLALFWDDLRSLCLFSYHHLRDLLLIVARIVELLGRRGWEVLKYWWNLLQYWIQELKNSAVSLLNTTAIAVAEGTDRIIEVIQRIFRAFLHIPRRIRQGLERALL
# B6: HIV-1 Env, rebound clone, antibody arm (protein)
# chain: B5 chain with K715R
# Target: antibody 10-1074
# Assay: neutralization IC50; higher = virus less sensitive to the antibody
# Protocol: (§1)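 Pseudovirus bearing the Env chain mixed with antibody, from 50 µg/ml in fivefold dilutions, on TZM-bl reporter cells, in duplicate.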
row,Binder,neutralization IC50 [µg/mL]
1,B1,> 50
2,B2,> 50
3,B3,> 50
4,B4,5.27
5,B5,18.4
6,B6,> 50

# Target: antibody 3BNC117
# Assay: as above
# Protocol: as §1
row,Binder,neutralization IC50 [µg/mL]
1,B1,0.279
2,B2,0.199
3,B3,0.232
4,B4,0.063
5,B5,0.063
6,B6,0.066

# Target: antibody 10-1074
# Assay: neutralization IC80; higher = virus less sensitive to the antibody
# Protocol: as §1
row,Binder,neutralization IC80 [µg/mL]
1,B1,> 50
2,B2,> 50
3,B3,> 50
4,B4,> 50
5,B5,46
6,B6,> 50

# Target: antibody 3BNC117
# Assay: as above
# Protocol: as §1
row,Binder,neutralization IC80 [µg/mL]
1,B1,0.929
2,B2,0.641
3,B3,1.03
4,B4,0.224
5,B5,0.175
6,B6,0.186
